The values below come from patent US20240425848.

Protein sequences can lack the tags named with them. For at least one entry, the source does not settle the construct or the ends of the probe.

The data set has as its target T1, Tn5 transposase (UniProt Q46731).
T1 sequence: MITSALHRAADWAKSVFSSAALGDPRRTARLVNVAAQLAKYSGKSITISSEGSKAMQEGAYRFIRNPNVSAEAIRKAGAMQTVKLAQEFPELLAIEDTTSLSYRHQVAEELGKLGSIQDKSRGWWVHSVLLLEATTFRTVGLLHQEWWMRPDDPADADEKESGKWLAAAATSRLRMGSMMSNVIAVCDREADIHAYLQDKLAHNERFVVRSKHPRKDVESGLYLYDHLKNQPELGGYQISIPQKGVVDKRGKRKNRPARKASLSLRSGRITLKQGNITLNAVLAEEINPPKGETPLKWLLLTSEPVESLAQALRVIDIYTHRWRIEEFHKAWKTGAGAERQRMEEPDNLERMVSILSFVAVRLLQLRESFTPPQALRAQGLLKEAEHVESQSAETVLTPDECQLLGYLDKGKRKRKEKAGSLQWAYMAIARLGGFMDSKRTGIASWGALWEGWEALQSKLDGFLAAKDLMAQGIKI
Kind of data set: activity assay. As to conditions: purified recombinant protein, protein details: produced from pTXB1-Tn5 (Addgene 60240).

Where [1] appears, read: barcoded transposon used in GET-seq tagmentation, 37 C, set of four oligos.

“AGATGTGTATAAGAGACAG (double strand) [Tn5 mosaic end (ME)]”: for the setting “tagmentation of Caki-1 gDNA, TAPS-PEG8000, 55 C 7 min, in-house Tn5”, the “activity on this sequence” value was “active”.

Consider “TCGTCGGCAGCGTCTCCGATCTCCTGAGATAGATGTGTATAAGAGACAG [Tn5ME-A.8]”, for which the “activity on this sequence” value under setting [1] was “active”.

Consider “TCGTCGGCAGCGTCTCCGATCTCGTACTAGAGATGTGTATAAGAGACAG [Tn5ME-A.1]”, for which, under setting [1], the “activity on this sequence” value was “active”.

In the case of “TCGTCGGCAGCGTCTCCGATCTTCATGAGCAGATGTGTATAAGAGACAG [Tn5ME-A.7]”, the “activity on this sequence” value under setting [1] is recorded as “active”.

Turning to “TCGTCGGCAGCGTCTCCGATCTTCCTGAGCAGATGTGTATAAGAGACAG [Tn5ME-A.2]”, the “activity on this sequence” value under setting [1] is listed as “active”.
